Data as given in patent US20150093752.

Target: T1, M.HhaI DNA cytosine-5 methyltransferase (UniProt P05102)
T1 sequence (looked up, limits assumed): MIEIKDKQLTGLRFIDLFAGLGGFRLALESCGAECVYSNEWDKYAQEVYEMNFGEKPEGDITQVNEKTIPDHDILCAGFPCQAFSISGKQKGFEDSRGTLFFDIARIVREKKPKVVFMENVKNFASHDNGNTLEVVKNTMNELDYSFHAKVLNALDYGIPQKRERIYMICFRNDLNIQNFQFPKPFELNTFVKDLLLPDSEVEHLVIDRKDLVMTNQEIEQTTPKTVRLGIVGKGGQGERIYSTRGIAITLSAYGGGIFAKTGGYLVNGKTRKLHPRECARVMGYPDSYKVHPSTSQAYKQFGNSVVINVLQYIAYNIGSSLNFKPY
Assay: activity assay
Details: purified recombinant protein

Sequence	activity on this sequence (hmC at target C of GCGC (enzymatically introduced), hmC nearly fully converted to C, cofactor-free, 37 C 2 h, HPLC-MS)	activity on this sequence (13 mM formaldehyde forms hmC, then coupling of thiols, selenols or hydroxylamine, variant of duplex I:II hmC)
TAATAATGCGCTAATAATAATAAT / TTATTACGCGATTATTATTATTA [duplex I:II hmC]	active	
TAATAATGCGCTAATAATAATAAT / TTATTACGCGATTATTATTATTA [duplex I:II unmodified]		active

The exact form of at least one protein or probe is not confirmed. Where a protein sequence is shown, tags need not be part of it.
